Compound potency records, mixed from different reports. Data source: NIAID ChemDB in PubChem.

Shared fields: tests in culture; species: HIV-1; read by: cytopathic effect / MTT; read-out: EC50

ECn is the concentration giving n% inhibition of infection, replication or growth. Neighbouring rows are from separate reports. An empty or dashed field is not shown.

structure,strain or isolate,cell line,mutations,result
C/C=C/CN1C(=O)c2cccn2S(=O)(=O)c2ccccc21,IIIB,MT-4,,7.5 µM
C1CNCCNCCCN(CCCN2CCCNCCNCCCNCC2)CCNC1,RF,MT-4,,1.26 µg/mL
CC(C)(C)NC(=O)[C@@H]1CN(Cc2cccnc2)CCN1C[C@@H](O)C[C@@H](Cc1ccccc1)C(=O)N[C@H]1c2ccccc2C[C@H]1O,LAI Laboratory isolate,MT-2,,0.019 µM
CS(=O)(=O)OCC1Nc2ccccc2S(=O)(=O)n2cccc21,IIIB,MT-4,,>130 µM
Nc1ccn([C@H]2CC[C@@H](CO)O2)c(=O)n1,H112-2,MT-2,,0.32 µM
O=C(/C=C(O)/C=C/c1ccc(O)cc1)/C=C/c1ccc(O)cc1,,MT-4,,>13 µM
CCCc1cc(=O)oc2c3c(c4c(c12)OC(C)(C)C=C4)O[C@@H](C)[C@H](C)[C@H]3O,G910-6 AZT-resistant,MT-2,,>25 µM
COc1c(O)c(Cl)c2c(c1OC)-c1c(c(Cl)c(O)c(OC)c1OC)C[C@H](C)[C@H](C)C2,TIBO-resistant L100I (RT-L100I),MT-4,RT-L100I,1.42 µM
O=C(/C=C/c1ccc(O)c(O)c1)c1ccc(O)cc1,,MT-4,,>4.4 µM
CC(=O)OCOP(=O)(OCOC(C)=O)C(=O)Oc1ccc(Cl)cc1Cl,IIIB,H9,,<8 µM
O=S1(=O)c2ccccc2-n2cncc2-c2cccn21,IIIB,MT-4,,>85 µM
Nc1cccc2c1ncn2[C@@H]1O[C@H](CO)[C@@H](O)[C@H]1O,IIIB,MT-4,,>125 µg/mL
O=c1[nH]cnc2c1ncn2[C@H]1CC[C@@H](CO)O1,LAI Laboratory isolate,MT-2,,3.4 µM
O=S1(=O)c2ccccc2NC(CO)c2cccn21,IIIB,MT-4,,>200 µM
O=[N+]([O-])c1cccc2c1ncn2[C@@H]1O[C@H](CO)[C@@H](O)[C@@H]1O,IIIB,MT-4,,79.4 µg/mL
CCN1CC(=O)Nc2c([N+](=O)[O-])cc(Cl)cc2S1(=O)=O,,MT-4,,>200 µM
O=C1/C(=C/c2ccc(O)c(O)c2)CNC/C1=C\c1ccc(O)c(O)c1,,MT-4,,>21 µM
CCCc1cc(=O)oc2c(C(=O)C(C)C(C)(C)O)c(O)c3c(c12)OC(C)(C)C=C3,IIIB,CEM + CEM-SS,,>27.1 µM
CSc1ccc2c(c1)N=C(N1CCNCC1)c1ccccc1N2,IIIB,CEM-T4 + CEM,,23 µg/mL
COc1c(O)c(I)c2c(c1OC)-c1c(c(I)c(O)c(OC)c1OC)C[C@H](C)[C@H](C)C2,IIIB,MT-4,,0.26 µM
CC(C)CN1C(=O)c2cccn2S(=O)(=O)c2ccccc21,IIIB,MT-4,,>184 µM
C1CNCCNCCCN2CCCNCCNCCCN(C1)CC2,NL4-3,MT-4,AMD3100-resistant,>50 µg/mL
Cc1cn([C@H]2C[C@H](N=[N+]=[N-])[C@@H](CO)O2)c(=O)[nH]c1=O,IIIB,MT-2,,0.02 µg/mL
Clc1cc(CN2CCCNCCNCCCNCC2)c(Cl)cc1CN1CCCNCCNCCCNCC1,RF,MT-4,,0.12 µg/mL
CC(=O)O[C@@]12C[C@@H](C)[C@@]3(O)[C@@H](C=C(CO)C[C@]4(O)C(=O)C(C)=C[C@@H]34)[C@@H]1C2(C)C,NL4-3,MT-4,,0.06 µg/mL
Cc1c(O)cccc1C(=O)N[C@@H](CSc1ccccc1)[C@H](O)CN1C[C@H]2CCCC[C@H]2C[C@H]1C(=O)NC(C)(C)C,NL4-3 WT,MT-4,,0.014 µM
c1ccc(-c2cc(CN3CCCNCCNCCCNCC3)ccc2CN2CCCNCCNCCCNCC2)cc1,AOM,MT-4,,0.34 µg/mL
Cc1cn([C@H]2C[C@H](N=[N+]=[N-])[C@@H](CO)O2)c(=O)[nH]c1=O,TIBO-resistant L100I (RT-L100I),MT-4,RT-L100I,0.01 µM
CC(C)c1nc(CN(C)C(=O)N[C@H](C(=O)N[C@@H](Cc2ccccc2)C[C@H](O)[C@H](Cc2ccccc2)NC(=O)OCc2cncs2)C(C)C)cs1,NL4-3 B,MT-4,,0.044 µM
CCCc1cc(=O)oc2c3c(c4c(c12)OC(C)(C)C=C4)O[C@H](C)C(C)(C)C3=O,IIIB,CEM + CEM-SS,,>19.3 µM
CC(C)(C)NC(=O)[C@@H]1C[C@@H]2CCCC[C@@H]2CN1C[C@@H](O)[C@H](Cc1ccccc1)NC(=O)[C@H](CC(N)=O)NC(=O)c1ccc2ccccc2n1,NL4-3 B,MT-4,,0.0034 µM
CCOC(=O)P(=O)(OCOC(C)=O)OCOC(C)=O,IIIB,H9,,>150 µM
CN1CCN(C2=Nc3cc(Cl)ccc3Nc3ccccc32)CC1,IIIB,MT-2,,>17 µg/mL
COC(=O)N[C@@H](Cc1c[nH]c2ccccc12)C(=O)NCCCC[C@@H](CO)N(CC(C)C)S(=O)(=O)c1ccc(N)cc1,RF2802 (PR-V82F I84V),MT-4,PR-V82F I84V,0.122 µM
CCOC(=O)C1c2cccn2S(=O)(=O)c2ccccc2N1C(=O)CBr,IIIB,MT-4,,>10 µM
CCN1CCn2c(=O)[nH]c3cc(Cl)cc(c32)S1(=O)=O,,MT-4,,>200 µM
O=C(/C=C/c1ccc(O)c(O)c1)CCc1ccccc1,,MT-4,,>15 µM
Cc1ccccc1CN1C(C)C(=S)Nc2ccc(Cl)cc2S1(=O)=O,,MT-4,,>200 µM
Cc1c(O)cccc1C(=O)N[C@@H](CSc1ccccc1)[C@H](O)CN1C[C@H]2CCCC[C@H]2C[C@H]1C(=O)NC(C)(C)C,LAI Laboratory isolate,MT-2,,0.005 µM
c1cc(CN2CCCNCCNCCCNCC2)ccc1CN1CCCNCCNCCCNCC1,NL4-3,MT-4,L-CA resistant,0.02 µM
CC(C)=CCN(C(C)C(=O)O)S(=O)(=O)c1cc(Cl)ccc1N,,MT-4,,109 µM
Cc1cn([C@H]2C[C@H](N=[N+]=[N-])[C@@H](CO)O2)c(=O)[nH]c1=O,CC,C8166,,0.009 µM
O=C(/C=C/c1ccc(O)cc1)c1cccc(C(=O)/C=C/c2ccc(O)cc2)c1,,MT-4,,>35 µM
CCN1C(C)C(=O)Nc2c([N+](=O)[O-])cc(Cl)cc2S1(=O)=O,,MT-4,,>105 µM
CC(C)c1nc(CN(C)C(=O)N[C@H](C(=O)N[C@@H](Cc2ccccc2)C[C@H](O)[C@H](Cc2ccccc2)NC(=O)OCc2cncs2)C(C)C)cs1,NL4-3 Laboratory clone,MT-2,,0.038 µM
c1ncc(CN2CCCNCCNCCCNCC2)cc1CN1CCCNCCNCCCNCC1,NL4-3,MT-4,AMD3100-resistant,5 µg/mL
CCCN1C(=O)c2cccn2S(=O)(=O)c2ccc(Cl)cc21,IIIB,MT-4,,>300 µM
COc1cc(CN2CCCNCCNCCCNCC2)c(OC)cc1CN1CCCNCCNCCCNCC1,168.10,SupT1 + Sup-T1,,0.01 µg/mL
[Li+],IIIB,CEM-T4 + CEM,,>200 µg/mL
O=C(O)c1cc(CN2CCCNCCNCCCNCC2)ccc1CN1CCCNCCNCCCNCC1,AOM,MT-4,,>10 µg/mL
CC(C)=CCn1c(=O)n2c3c(cc(Cl)cc31)S(=O)(=O)NC(C)C2,,MT-4,,>91 µM